Assay [1] has as its target vimentin rod domain (amino acids 102 to 410), His-tagged (mouse, UniProt P20152 102-410). Kind of assay: far-Western, overlay or dot blot.
Assay [2] deals with T1, recombinant His-tagged mouse vimentin (full length) (mouse, UniProt P20152 1-466).
T1 construct: also called full length vimentin; vimentin (whole protein)
Kind of assay: co-IP.

B1: Clostridium botulinum C3 exoenzyme (enzyme)
chain: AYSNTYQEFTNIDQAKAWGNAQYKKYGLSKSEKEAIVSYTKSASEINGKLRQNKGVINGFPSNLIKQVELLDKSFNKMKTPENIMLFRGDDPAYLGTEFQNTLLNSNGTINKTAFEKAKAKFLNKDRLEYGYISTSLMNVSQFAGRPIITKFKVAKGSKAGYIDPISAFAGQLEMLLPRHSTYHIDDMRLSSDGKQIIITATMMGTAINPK
With B1, the binding result in assay [1] and in assay [2] was “binds” throughout.

For the origin of these results see publication PMC4072758, “Vimentin Mediates Uptake of C3 Exoenzyme” (PLoS ONE, 2014).
